In PubChem BioAssay AID624483 (NMMLSC, 2012):
This is a selection; strong and weak results do not stand in their true shares. Some structures show a salt or complex split into parts, the way the source records it. Calls of active or inactive are those of the source. Cut-off read from the data, not from the text of the source: active = fluorescence intensity above about 16000; inconclusive = no clear call, values can overlap the other calls; inactive = below that.

Assay: counter-screen for toxin protease inhibitors: compound fluorescence, primary screen, artefact control for toxin protease inhibitor project, biochemical, multiplex microsphere, HTS (AID 624483); note: test concentration not given here
Details: compound autofluorescence counterscreen, microsphere flow cytometry; hits give high values

SMILES | fluorescence intensity
CP(=O)(Nc1ccccc1F)Oc1ccccc1 (configuration not stated) | inactive: 9460
CCc1cc(O)c([N+](=O)[O-])c(C)c1[N+](=O)[O-] | inactive: 3440
CCOc1ccc(C2=NCC(CBr)S2)cc1 (configuration not stated) | inactive: 4530
O=[N+]([O-])c1cc([N+](=O)[O-])c(Nc2ccc(Cl)cc2)c([N+](=O)[O-])c1 | inactive: 3860
O=P1(Nc2nc3ccc(Cl)cc3s2)COc2ccccc2O1 (configuration not stated) | inactive: 9140
CC(=O)Nc1ccc(Oc2c([N+](=O)[O-])cc([N+](=O)[O-])cc2[N+](=O)[O-])cc1 | inactive: 4230
CC(=O)Nc1ccc([As](=O)(O)O)c(O)c1 | inactive: 4720
COc1ccc2c(c1O)-c1c(O)c(OC)cc3c1[C@H](C2)[N+](C)(C)CC3.O=[N+]([O-])c1cc([N+](=O)[O-])c([O-])c([N+](=O)[O-])c1[O-] | inactive: 4110
C[C@H]1OP(=O)(Oc2ccccc2)C[C@@H]2O[C@@H]21 (some centres not stated) | inactive: 3910
C[C@@H]1C=CCP(=O)(Oc2ccccc2)O1 (some centres not stated) | inactive: 4060
Cc1ccccc1CN(C)C(=O)COC(=O)C(O)(c1ccccc1)c1ccccc1 | inactive: 2780
O=C(OCCN1CCN(CCOCc2ccccc2)CC1)C(O)(c1ccccc1)c1ccccc1 | inactive: 7440
O=C(OC1CN2CCC1CC2)c1ccc([N+](=O)[O-])cc1 (configuration not stated) | inactive: 5880
COC(=O)C1(C)COP(=O)(NCc2ccccc2)OC1 (configuration not stated) | inactive: 4220
CC(=O)c1ccc(N2CC2c2ccncc2)cc1 (configuration not stated) | inactive: 3660
N#C/C(=C\c1ccc(N(CCBr)CCBr)cc1)C(N)=O | inactive: 3830
c1nnnn1CCn1cnnn1 | inactive: 4910
CCOP(C)(=S)SCC(=O)NC(C)(CC)C(=O)O (configuration not stated) | inactive: 4210
CC(C)C(=O)NC(Sc1ccccc1)C(Cl)(Cl)Cl (configuration not stated) | inactive: 2530
O=P(Nc1nccs1)(c1ccccc1)c1ccccc1 | inactive: 2980
CP(=O)(Nc1ccc(SC(F)(F)F)cc1)Oc1ccc(F)cc1 (configuration not stated) | inactive: 5760
O=[N+]([O-])c1cc([N+](=O)[O-])c(C(F)(F)F)c([N+](=O)[O-])c1O | inactive: 5900
Cc1ccccc1NP(C)(=O)Nc1ccccc1C | inactive: 4290
CP(=O)(Nc1ccc2c(c1)OCCO2)Oc1ccccc1 (configuration not stated) | inactive: 3070
COc1ccc(NP(C)(=O)Oc2ccccc2OC)cc1 (configuration not stated) | inactive: 4840
C[C@H]1OP(=O)(Oc2ccccc2)[C@H](O)[C@H](O)[C@H]1N=[N+]=[N-] (some centres not stated) | inactive: 3540
CN(C)CCOC(=O)C(O)(c1ccccc1)C1CCCCC1 (configuration not stated) | inactive: 2430
